We go through three sequences from PMC10030653, “ClpC2 protects mycobacteria against a natural antibiotic targeting ClpC1-dependent protein degradation” (Communications Biology, 2023).

Protein sequences, listed by entry. Tags and fused reporters are not part of them. Lines headed by an entry give the natural chain unless they say otherwise; changes in a name come on top.
UniProt P9WPC9, whole entry: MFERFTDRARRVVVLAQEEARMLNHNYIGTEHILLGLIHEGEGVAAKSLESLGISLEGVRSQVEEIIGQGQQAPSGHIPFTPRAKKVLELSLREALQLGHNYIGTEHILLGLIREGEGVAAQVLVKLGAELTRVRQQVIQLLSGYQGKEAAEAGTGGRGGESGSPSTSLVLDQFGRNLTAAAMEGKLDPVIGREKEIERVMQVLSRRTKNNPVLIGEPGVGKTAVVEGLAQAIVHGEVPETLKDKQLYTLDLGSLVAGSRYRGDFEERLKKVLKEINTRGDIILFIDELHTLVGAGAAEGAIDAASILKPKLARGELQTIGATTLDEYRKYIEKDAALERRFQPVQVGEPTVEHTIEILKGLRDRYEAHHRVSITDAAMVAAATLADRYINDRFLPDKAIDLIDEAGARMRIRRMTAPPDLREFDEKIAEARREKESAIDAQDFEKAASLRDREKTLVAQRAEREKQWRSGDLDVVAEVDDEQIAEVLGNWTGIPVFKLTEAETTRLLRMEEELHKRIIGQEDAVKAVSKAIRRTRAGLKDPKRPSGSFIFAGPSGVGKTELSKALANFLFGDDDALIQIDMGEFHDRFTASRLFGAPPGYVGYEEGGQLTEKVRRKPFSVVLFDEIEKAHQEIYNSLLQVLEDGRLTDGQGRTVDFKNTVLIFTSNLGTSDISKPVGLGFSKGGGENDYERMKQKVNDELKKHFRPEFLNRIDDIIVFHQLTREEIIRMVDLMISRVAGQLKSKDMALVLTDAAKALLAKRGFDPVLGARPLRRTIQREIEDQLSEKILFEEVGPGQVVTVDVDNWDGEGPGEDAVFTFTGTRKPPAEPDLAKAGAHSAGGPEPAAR
UniProt P9WPC7: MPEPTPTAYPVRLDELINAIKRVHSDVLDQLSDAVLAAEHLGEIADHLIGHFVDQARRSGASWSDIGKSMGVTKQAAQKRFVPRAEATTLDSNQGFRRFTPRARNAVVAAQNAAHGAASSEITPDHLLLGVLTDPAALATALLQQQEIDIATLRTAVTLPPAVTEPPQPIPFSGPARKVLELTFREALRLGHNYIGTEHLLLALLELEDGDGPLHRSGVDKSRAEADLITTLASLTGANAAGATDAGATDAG

For at least one entry, the source does not settle the construct or the ends of the probe. At least one verdict was read from the data and is not stated in words by the source.

Data set [1] deals with ClpC1 (Mycobacterium tuberculosis) (UniProt P9WPC9). In words: competition with a labelled probe. The note with it: 10 nM labelled operator DNA; EMSA: 5 mM HEPES-KOH pH 7.5, 30 mM KCl, 1% glycerol, 10 mM MgCl2, room temperature 20 min, 12% polyacrylamide gel; recombinant protein; residues 1-848; protein details: untagged.
The target of data set [2] is ClpC2 WT (Mycobacterium tuberculosis) (UniProt P9WPC7). Kind of data set: competition with a labelled probe. Conditions: EMSA: 5 mM HEPES-KOH pH 7.5, 30 mM KCl, 1% glycerol, 10 mM MgCl2, room temperature 20 min, 12% polyacrylamide gel; recombinant protein; residues 1-252; protein details: untagged.

“GTTGCTTCAGCAGCAGGAGATCGACATCGCAACCCTGCGTA (double strand) [nonspecific_EMSA_41bp]”: the binding result in data set [1] is reported as “binds”.

Turning to “AACGTCAACCTACTGTTGACGTC (double strand) [specific_EMSA_23bp]”, the binding result in data set [2] is “binds”. As to “ACAATGCATAACGTCAACCTACTGTTGACGTCATGCCGGAG (double strand) [specific_EMSA_41bp]”, the binding result in data set [1] was “binds”.
